Results deposited as PubChem BioAssay AID504761 (Drosophila RNAi Screening Center, 2011)
In all, the deposit lists about 22,000 reagents; below is an unselected part of those that have a named target and a result. Of all reagents, 116 (0.52%) are marked active. 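Calls depend on retest data that are not deposited; infection was ranked per plate without normalising between plates; the unit of the infection score is not given.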 The raw values are shown without normalisation. Reagents against one gene are numbered here. A plus sign joins genes that one reagent is predicted to hit. Not given: the amount of reagent, the time to read-out.

Aim: 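Fly genes whose silencing reduces dengue virus type 2 infection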 (primary screen)
System: D.Mel-2 cells from Drosophila
Knock-down reagent: long dsRNA against Drosophila genes
Conditions: infection with dengue virus type 2; dose and infection time not stated
Detection: 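Cells stained for dengue envelope protein and imaged; percent of infected cells per well on duplicate plates, ranked by infection, with stained nuclei counted for cell number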
Scale: infection score: higher = more virus-infected cells; cell count: higher = more cells in the well
Active means: 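Very low infection ranking in both replicate wells (chance probability at most 0.065), then a retest showing infection dropped 1.5-fold or more at p below 0.05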
Calls: active = confirmed: knock-down lowers infection; inactive = not picked or not confirmed

gene	dsRNA no.	infection score, replicate 1	infection score, replicate 2	cell count, replicate 1	cell count, replicate 2	Call
xit	1	1.82	8.76	6328	6896	inactive
CG31296	1	2.65	5.87	6406	6469	inactive
Ilp6	1	0.99	19.7	706	6641	inactive
CG10904	1		5.51	405	2159	inactive
CG10834	1	3.97	4.83	6476	6487	inactive
CG4375	1	3.07	1.14	6716	6463	inactive
CG4375	2	2.9	3	7149	7000	inactive
CG34376	1	8.06	10.6	3636	6485	inactive
CG34376	2	9.87	2.62	5155	6444	inactive
CG34376	3	9.78	17.9	5267	5194	inactive
CG34376	4	5.2	7.96	6368	6218	inactive
CG18449	1	2.15	14.7	6979	4989	inactive
CG3699	1	8.8	2.16	4650	6195	inactive
CG3699	2	1.9	0.56	5848	6199	inactive
hts	1	1.06	1.79	6410	6304	inactive
hts	2	23	20.7	5614	5681	inactive
NPFR	1	4.28	6.54	6611	6838	inactive
CG13908 (retired record)	1	2.08	1.78	6158	5857	inactive
CG13908 (retired record)	2	17.1	9.96	6367	6598	inactive
Jhbp12	1	3.19	13.4	6794	5751	inactive
skd	1	3.19	3.5	5830	6081	inactive
CG31805	1	7.11	1.7	5819	5780	inactive
Usp16-45	1	3.25	5.15	6307	6776	inactive
Usp16-45	2	1.32	3.19	6601	6576	inactive
mAChR-B	1	1.91	1.27	6637	631	inactive
mAChR-B	2	13.8	8.58	6013	6086	inactive
uex	1	1.66	6.92	6493	5662	inactive
uex	2	6.97	29.3	6599	5642	inactive
Gr63a	1	1.76	2.16	6705	5598	inactive
l(2)k05911	1	9.25	5.94	5981	6330	inactive
Dic1	1	7	7.1	5943	6116	inactive
CG4882	1	10.9	12.5	5003	4054	inactive
CG4882	2	12.9	9.55	5354	5443	inactive
qtc	1	16.3	2.68	5083	6379	inactive
qtc	2	2.1	1.46	5991	6641	inactive
qtc	3	38.9	17.2	3106	6548	inactive
Tcs4	1	3.8	1.54	6291	6035	inactive
Tcs4	2	0.28	3.13	353	862	inactive
CG11566 (retired record) + stg1	1	6.92	4.02	4799	4428	inactive
CG11566 (retired record) + stg1	2	3.54	0.52	5762	5958	inactive
CG11566 (retired record) + stg1	3	3.83	2.31	5587	5880	inactive
CG11566 (retired record) + stg1	4	6.34	1.43	5998	6344	inactive
AOX3	1	18	12.7	6354	6603	inactive
CG42260	1	4.34	1.03	5532	5249	inactive
CG42260	2	7.51	8.78	6844	6824	inactive
CG42260	3	12.6	11.2	6725	6344	inactive
CG42260	4	7.32	8.76	5645	1917	inactive
CR16735	1	4.01	21.7	6407	6020	inactive
Ir68b	1	2.61	1.79	6132	6687	inactive
CG6356	1	3.24	2.83	6199	6572	inactive
CG1532	1	1.08	1.61	6108	6015	inactive
alphaCOP	1	9.28	15.6	1325	2418	inactive
E(spl)mbeta-HLH	1	11.1	1.32	6630	6293	inactive
Tengl2	1	1.69	2.09	6584	6855	inactive
Tengl2	2	1.7	20.2	825	5729	inactive
Pdk1	1	5.53	3.75	7500	7458	inactive
Pdk1	2	2.34	7.51	6666	6645	inactive
CG15385	1	7.13	3.21	6281	5979	inactive

7 of these entries, reformatted.
{"gene": "Ir68b", "dsRNA no.": 1, "infection score, replicate 1": 2.61, "infection score, replicate 2": 1.79, "cell count, replicate 1": 6132, "cell count, replicate 2": 6687, "Call": "inactive"}
{"gene": "CG6356", "dsRNA no.": 1, "infection score, replicate 1": 3.24, "infection score, replicate 2": 2.83, "cell count, replicate 1": 6199, "cell count, replicate 2": 6572, "Call": "inactive"}
{"gene": "CG1532", "dsRNA no.": 1, "infection score, replicate 1": 1.08, "infection score, replicate 2": 1.61, "cell count, replicate 1": 6108, "cell count, replicate 2": 6015, "Call": "inactive"}
{"gene": "alphaCOP", "dsRNA no.": 1, "infection score, replicate 1": 9.28, "infection score, replicate 2": 15.6, "cell count, replicate 1": 1325, "cell count, replicate 2": 2418, "Call": "inactive"}
{"gene": "E(spl)mbeta-HLH", "dsRNA no.": 1, "infection score, replicate 1": 11.1, "infection score, replicate 2": 1.32, "cell count, replicate 1": 6630, "cell count, replicate 2": 6293, "Call": "inactive"}
{"gene": "Tengl2", "dsRNA no.": 1, "infection score, replicate 1": 1.69, "infection score, replicate 2": 2.09, "cell count, replicate 1": 6584, "cell count, replicate 2": 6855, "Call": "inactive"}
{"gene": "Tengl2", "dsRNA no.": 2, "infection score, replicate 1": 1.7, "infection score, replicate 2": 20.2, "cell count, replicate 1": 825, "cell count, replicate 2": 5729, "Call": "inactive"}
